Patent publication US20240131007A1, “METHODS AND COMPOSITIONS FOR PICORNAVIRUS ANTI-VIRAL AGENTS” (University of Connecticut, priority 2022, published 2024)

Columns and labels:
EV-71 = assay: NIAID Antiviral Program for Pandemics primary assay (CPE/Tox), EV-71; settings: CC50/EC50
EV-68 = assay: NIAID Antiviral Program for Pandemics primary assay (CPE/Tox), EV-68; settings: CC50/EC50

## Cc1ccc2[nH]c(-c3ccc(NC(=O)c4cccs4)cc3)nc2c1 [Compound 36, N-[4-(5-methyl-1H-benzimidazol-2-yl)phenyl]-2-thiophenecarboxamide]
EV-71; Neutral Red (CPE/Tox)
  SI50: 8.9
EV-71; Visual (CPE/Tox)
  SI50: 0
EV-68; Neutral Red (CPE/Tox)
  SI50: 23
EV-68; Visual (CPE/Tox)
  SI50: 46
